Anti-infective test results gathered from many reports (values: NIAID ChemDB through PubChem).

Common to all: target-level tests; species: HIV-1; protein: Protease; endpoint: IC50

Rows are shuffled and stem from different studies. Blank or dashed fields: not listed here. ICn: concentration for n% inhibition.

structure	mutations	method	conditions	result
CC(C)c1ccccc1Sc1c(O)cc(-c2ccc(OCc3ccccn3)cc2)oc1=O		HPLC	pH 4.7	0.14 µM
CC(C)C[C@H](NC(=O)[C@@H](NC(=O)CCCCCCCCCCCCCCC(=O)N[C@@H](CC(N)=O)C(=O)N[C@@H](Cc1c[nH]c2ccccc12)C(=O)O)C(C)O)C(=O)N[C@@H](Cc1ccccc1)C(N)=O				5.6 µM
Cc1ccc(S(=O)(=O)NC(N)=NCCC[C@H](NC(=O)N2c3ccccc3CCc3ccccc32)C(=O)O)cc1		HPLC		220 µM
O=c1oc(-c2ccc(OCc3cccnc3)cc2)cc(O)c1SCc1ccccc1		HPLC	pH 4.7	3.3 µM
CC(=S)[C@H](NC(=O)OCC1=CCCC=C1)C(=O)N[C@@H](Cc1ccccc1)[C@@H]1O[C@@H]1[C@H](Cc1ccccc1)NC(=O)[C@@H](NC(=O)OCc1ccccc1)C(C)=S		fluorescence		0.195 µg/mL
CC(C)[C@H](NC(=O)[C@H](Cc1ccc2ccccc2c1)CS(=O)(=O)C(C)(C)C)C(=O)NCP(=O)(CNC(=O)[C@@H](NC(=O)[C@H](Cc1cccc2ccccc12)CS(=O)(=O)C(C)(C)C)C(C)C)NN				0.0085 µM
CC(C)(C)NS(=O)(=O)N(C[C@@H](O)[C@H](Cc1ccccc1)NC(=O)OCc1ccccc1)C1CCCCC1				<10 µM
CCc1ccccc1Sc1c(O)cc(-c2ccc(OCc3cccnc3)cc2)oc1=O		HPLC	pH 4.7	0.232 µM
Cc1cc(=O)c2c(O)c3c(O)cc(=O)c4c3c3c(cc(O)c1c23)C(C)(C)C=4O		HPLC		21 µM
Cc1ccc(C(C)(C)C)c(Sc2c(O)cc(-c3ccc(OCc4cccnc4)cc3)oc2=O)c1		HPLC	pH 4.7	0.024 µM
CC(C)(C)OC(=O)NN(Cc1ccoc1)C[C@H](O)[C@H](Cc1ccccc1)NC(=O)OCc1ccccc1		substrate cleavage		0.0038 µM
Cc1cn([C@@H]2C[C@@H](N=[N+]=[N-])[C@H](COC(=O)C(C)(C)CC(=O)N[C@@H](Cc3ccccc3)[C@H](O)C(=O)N3CSC(C)(C)[C@H]3C(=O)NC(C)(C)C)O2)c(=O)[nH]c1=O				>5 µM
CC(C)c1nc(COC(=O)N[C@@H](C(=O)N[C@@H](Cc2ccccc2)[C@H](O)CN2CCN(Cc3cncs3)C[C@H]2C(=O)NC(C)(C)C)C(C)C)cs1		substrate cleavage		0.027 µM
Cc1ccc(S(=O)(=O)NC(N)=NCCC[C@H](NC(=O)CC23CC4CC(CC(C4)C2)C3)C(=O)O)cc1		HPLC		54 µM
CC(C)CN(C[C@@H](O)[C@H](Cc1ccccc1)NC(=O)OCc1ccccc1)S(=O)(=O)NCCOCc1ccccc1				>10 µM
CC[C@H](C)[C@H](NC(=O)[C@@H]1CCCN1C(=O)[C@H](O)[C@H](Cc1ccccc1)NC(=O)[C@H](CC(=O)O)NC(=O)[C@H](Cc1ccccc1)NC(=O)[C@@H](N)CO)C(=O)N[C@H](C(N)=O)C(C)C		substrate cleavage	pH 5.75	0.1 µM
CCCCCCCC(=O)OC1OC(=O)C(C)(C(C)=O)C1C		HPLC		523 µM
Cc1ccc(S(=O)(=O)NC(N)=NCCC[C@H](NC(=O)C(c2ccccc2)c2ccccc2)C(=O)O)cc1		HPLC		45 µM
CC[C@H](C)[C@H](NC(=O)[C@@H]1CCCN1C(=O)[C@H](O)[C@H](Cc1ccccc1)NC(=O)[C@H](CO)NC(=O)CCc1ccccc1)C(=O)N[C@H](C(N)=O)C(C)C		substrate cleavage	pH 5.75	>10 µM
CC(=O)N[C@@H](Cc1cccc2ccccc12)C(=O)N[C@H](C(=O)N[C@@H](CC(C)C)[C@@H](O)CC(=O)N[C@@H](CC(C)C)C(=O)N[C@@H](Cc1ccccc1)C(N)=O)C(C)C				0.006 µM
Cc1cc(C)c(S(=O)(=O)NC(N)=NCCC[C@H](NC(=O)OCC2c3ccccc3-c3ccccc32)C(=O)O)c(C)c1		HPLC		70 µM
CSCC[C@H](NC(=O)c1cccc(O)c1C)C(=O)N(Cc1ccccc1)N(CO)C(=O)[C@@H]1CCCN1C(=O)OC(C)(C)C		HPLC		135 µM
CC(=O)N[C@@H](Cc1cccc2ccccc12)C(=O)N[C@@H](CCC(N)=O)C(=O)N[C@@H](CC(C)C)[C@@H](O)CC(=O)N[C@@H](CC(C)C)C(=O)N[C@@H](Cc1ccccc1)C(N)=O				3.3 µM
CC(C)C[C@H](NC(=O)[C@@H](NC(=O)CCCCCCCCCCCCCCC(=O)N[C@@H](CS(C)(=O)=O)C(=O)N[C@@H](Cc1ccccc1)C(=O)O)C(C)O)C(=O)N[C@@H](Cc1ccccc1)C(N)=O				2.9 µM
Cc1ccccc1CNC(=O)[C@H]1N(C(=O)[C@@H](O)[C@H](Cc2ccccc2)NC(=O)c2ccccc2C(=O)NCc2ccncc2)CSC1(C)C		HPLC		<5 µM
CC[C@H](NC(=O)N(C)Cc1ccccn1)C(=O)N[C@@H](CSc1ccc2ccccc2c1)[C@@H]1O[C@@H]1[C@H](CSc1ccc2ccccc2c1)NC(=O)[C@H](CC)NC(=O)N(C)Cc1ccccn1		fluorescence		>1000 µg/mL
CC(C)c1nc(CN(C)C(=O)N[C@@H](C(=O)NN(CC2C=COC=C2)C[C@H](O)[C@H](Cc2ccccc2)NC(=O)OCc2cncs2)C(C)C)cs1		substrate cleavage		0.0032 µM
Cc1c(O)cccc1C(=O)N[C@H](C(=O)N(Cc1ccccc1)N(CCO)C(=O)[C@@H]1CCCN1C(=O)OC(C)(C)C)[C@@H](C)O		HPLC		131 µM
CNS(=O)(=O)N(CC(C)C)C[C@@H](O)[C@H](Cc1ccccc1)NC(=O)OCc1ccccc1				>0.1 µM
Cc1c(O)cccc1C(=O)N[C@@H](CC(C)C)C(=O)N(Cc1ccccc1)N(CO)C(=O)[C@@H]1CCCN1C(=O)OC(C)(C)C		HPLC		23 µM
CC(C)(C)NC(=O)[C@@H]1CSCN1C(=O)[C@@H](O)[C@H](Cc1ccccc1)NC(=O)CC(C)(C)C(=O)O				<5 µM
Cc1c(O)cccc1C(=O)N[C@H](C(=O)N(Cc1ccccc1)N(CO)C(=O)[C@@H]1CCCN1C(=O)OC(C)(C)C)[C@@H](C)O		HPLC		214 µM
Cc1ccc(S(=O)(=O)NC(N)=NCCC[C@H](NC(=O)OCC2c3ccccc3-c3ccccc32)C(N)=O)cc1		HPLC		4 µM
CC(C)[C@H](NC(=O)N(C)Cc1cncs1)C(=O)N[C@@H](Cc1ccccc1)[C@H](O)CN1CCN(Cc2cncs2)C[C@H]1C(=O)NC(C)(C)C		substrate cleavage		0.0005 µM
CC(O)/C=C/C1OC(=O)CC1Nc1ccc(C=O)cc1		HPLC		468 µM
CC(C)[C@H](NC(=O)[C@H](Cc1ccc2ccccc2c1)CS(=O)(=O)C(C)(C)C)C(=O)N[C@H](Cc1ccccc1)P(=O)(O)[C@@H](Cc1ccccc1)NC(=O)[C@@H](NC(=O)[C@H](Cc1cccc2ccccc12)CS(=O)(=O)C(C)(C)C)C(C)C				0.085 µM
CSCC[C@H](NC(=O)[C@H](CC(C)C)NC(=O)[C@@H](NC(=O)CCCCCCCCCCCCCCC(=O)N[C@@H](CC(N)=O)C(=O)N[C@@H](Cc1ccccc1)C(=O)O)C(C)O)C(=O)O				>5.5 µM
CC(C)c1nc(CN(C)C(=O)N[C@@H](C(=O)NN(Cc2ccc(O)cc2)C[C@H](O)[C@H](Cc2ccccc2)NC(=O)OCc2cncs2)C(C)C)cs1		substrate cleavage		<0.0005 µM
C/C=C(/CC[C@@H](C)[C@H]1CC[C@H]2[C@@H]3CC=C4C[C@@H](O)CC[C@]4(C)[C@H]3CC[C@]12C)C(C)C		HPLC		>100 µM
COc1ccc(C[C@H](NC(C)=O)C(=O)N[C@H](C(=O)N[C@@H](CC(C)C)[C@@H](O)CC(=O)N[C@@H](CC(C)C)C(=O)N[C@@H](Cc2ccccc2)C(N)=O)C(C)C)cc1				0.016 µM
Cc1cn([C@@H]2C[C@@H](N=[N+]=[N-])[C@H](COC(=O)C(C)C(C)C(=O)N[C@@H](Cc3ccccc3)[C@H](O)C(=O)N3CSC[C@H]3C(=O)NC(C)(C)C)O2)c(=O)[nH]c1=O				>5 µM
CC(C)[C@H](NC(=O)[C@H](Cc1ccc2ccccc2c1)CS(=O)(=O)C(C)(C)C)C(=O)N[C@@H](Cc1ccccc1)P(N)(=O)[C@H](Cc1ccccc1)NC(=O)[C@@H](NC(=O)[C@H](Cc1cccc2ccccc12)CS(=O)(=O)C(C)(C)C)C(C)C				0.001 µM
COc1cccc2cc(C(=O)N[C@@H](Cc3ccccc3)[C@H](O)C(=O)N3CSC(C)(C)[C@H]3C(=O)NCc3ccccc3C)oc12		HPLC		<5 µM
CC(C)C[C@H](NC(=O)[C@H](Cc1ccccc1)NC(=O)CCCCCCCCCCCCCCC(=O)N[C@@H](CC(N)=O)C(=O)N[C@@H](Cc1ccccc1)C(=O)O)C(=O)N[C@@H](Cc1ccccc1)C(N)=O	PR-L10I K45R I54V L63P A71V V82T L90M I93L			~0.7 µM
CC(C)(C)NC(=O)[C@H]1N(C(=O)[C@@H](O)[C@H](Cc2ccccc2)NC(=O)c2ccccc2C(=O)NCc2ccccn2)CSC1(C)C		HPLC		>5 µM
COC(=O)[C@@H](NC(=O)[C@H](CC(C)C)NC(=O)[C@@H](NC(=O)CCCOc1cccc(OCCCC(=O)N[C@H](C(=O)N[C@@H](CC(C)C)C(=O)N[C@H](C(=O)OC)C(C)C)[C@@H](C)O)n1)[C@@H](C)O)C(C)C		fluorescence		>7 µM
CCCCCCCCCCCCCCC(=O)C1=C([O-])C(CO)OC1=O.[Na+]		HPLC		123 µM
CC(=O)N[C@@H](Cc1cccc2ccccc12)C(=O)N[C@@H](CC(N)=O)C(=O)N[C@@H](CC(C)C)[C@@H](O)CC(=O)N[C@@H](CC(C)C)C(=O)N[C@@H](Cc1ccccc1)C(N)=O				4.6 µM
CC(C)(C)NC(=O)[C@H]1N(C(=O)[C@@H](O)[C@H](Cc2ccccc2)NC(=O)c2ccccc2C(=O)NCc2cccnc2)CSC1(C)C		HPLC		>5 µM
Cc1ccc(S(=O)(=O)NC(N)=NCCC[C@@H](CO)NC(=O)OCC2c3ccccc3-c3ccccc32)cc1		HPLC		9 µM
O=C(N[C@@H](Cn1cccc1)C(=O)N[C@@H](Cc1ccccc1)[C@@H]1O[C@@H]1[C@H](Cc1ccccc1)NC(=O)[C@H](Cn1cccc1)NC(=O)OCc1ccccc1)OCc1ccccc1		fluorescence		6.81 µg/mL
CC(C)c1ccccc1Sc1c(O)cc(-c2ccc(OCCc3ccccc3)cc2)oc1=O		HPLC	pH 4.7	1.1 µM
CC(C)(C)OC(=O)NN(C[C@H](O)[C@H](Cc1ccccc1)NC(=O)OCc1ccccc1)CN1C=CSC1		substrate cleavage		0.035 µM
CCC(C)[C@H](NC(=O)N(C)Cc1ccccn1)C(=O)N[C@@H](Cc1ccc2ccccc2c1)[C@@H]1O[C@@H]1[C@H](Cc1ccc2ccccc2c1)NC(=O)[C@@H](NC(=O)N(C)Cc1ccccn1)C(C)CC		fluorescence		>1000 µg/mL
CC(O)/C=C/C1OC(=O)CC1Nc1ccc(CO)cc1		HPLC		508 µM
COP(=O)(CNC(=O)[C@@H](NC(=O)[C@H](Cc1ccc2ccccc2c1)CS(=O)(=O)C(C)(C)C)C(C)C)CNC(=O)[C@@H](NC(=O)[C@H](Cc1cccc2ccccc12)CS(=O)(=O)C(C)(C)C)C(C)C				0.95 µM
Cc1ccc(S(=O)(=O)NC(N)=NCCC[C@H](NC(=O)OCC2c3ccccc3-c3ccccc32)C(=O)OCCO)cc1		HPLC		55 µM
CC(C)(C)NC(=O)[C@H]1N(C(=O)[C@@H](O)[C@H](Cc2ccccc2)NC(=O)c2ccccc2NC(=O)OCc2ccccc2)CSC1(C)C		HPLC		<5 µM
CC(C)(C)OC(=O)NN(Cc1ccncc1)C[C@H](O)[C@H](Cc1ccccc1)NC(=O)OCc1ccccc1		substrate cleavage		0.104 µM
O=c1oc(-c2ccc(OCc3ccccn3)cc2)cc(O)c1SCCc1ccccc1		HPLC	pH 4.7	1.5 µM
CCCCCCCCCCCCCC(=O)C1=C([O-])C(CO)OC1=O.[Na+]		HPLC		135 µM
CC(C)CN(C[C@@H](O)[C@H](Cc1ccccc1)NC(=O)OCc1ccccc1)S(=O)(=O)NC(C)C				1 µM
CC(C)(C)c1ccccc1Sc1c(O)cc(-c2ccc(OCc3cccnc3)cc2)oc1=O		HPLC	pH 4.7	0.025 µM

For reference, 3 entries again:

structure	mutations	method	conditions	result
CC(O)/C=C/C1OC(=O)CC1Nc1ccc(C=O)cc1		HPLC		468 µM
Cc1ccc(S(=O)(=O)NC(N)=NCCC[C@H](NC(=O)C(c2ccccc2)c2ccccc2)C(=O)O)cc1		HPLC		45 µM
CC(C)CN(C[C@@H](O)[C@H](Cc1ccccc1)NC(=O)OCc1ccccc1)S(=O)(=O)NC(C)C				1 µM